{
  "sequences": {"note": "Chains of the proteins cited; added tags and fusions are not shown. Lines headed by an entry give the natural chain unless they say otherwise; changes in a name come on top. Residues count along the entry.", "UniProt Q496J9, 529-579": "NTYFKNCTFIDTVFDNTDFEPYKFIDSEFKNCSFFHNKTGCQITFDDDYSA", "UniProt Q496J9, 456-574": "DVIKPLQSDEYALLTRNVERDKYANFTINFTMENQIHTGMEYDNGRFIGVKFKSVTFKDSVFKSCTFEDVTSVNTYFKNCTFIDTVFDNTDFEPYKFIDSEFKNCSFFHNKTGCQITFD"},
  "source": "paper PMC4885069",
  "origin": "cited, not measured here",
  "settings_in_all_cases": "cited from earlier work",
  "key": {"[1]": {"target": "SV2C 529-579 (Homo sapiens) (UniProt Q496J9)"}, "[2]": {"target": "SV2C 529-579 (Homo sapiens) (UniProt Q496J9)", "test": "SPR"}, "[3]": {"target": "SV2C 456-574 (Homo sapiens) (UniProt Q496J9)"}},
  "note": "Like-named read-outs stand apart in the source and are kept apart here.",
  "data": [
    {"substance": "BoNT/A HC (from UniProt P0DPI1)", "values": [
      {"measurement": "Kd", "setting": "[1]", "value": 105, "unit": "nM"},
      {"measurement": "Kd", "setting": "[2]", "value": 96.2, "unit": "nM"},
      {"measurement": "Kd", "setting": "[3]", "value": 260, "unit": "nM"}
    ]}
  ]
}
